Data taken from ChEMBL document CHEMBL3988442, “University of Dundee, Small-Polar-MMV Screening Library” (2021).

A: 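Phenotypic screen: M. tuberculosis growth, glucose 7H9 medium, 3 days; the read-out is not stated. Concentration: 500 µM. Direction is inferred from retests: higher values go with more growth inhibition. Of about 18,000 compounds tested this way, about 1,400 (7.9%) reached 50% or more in at least one test.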
B: 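Phenotypic screen: M. tuberculosis growth, cholesterol and DPPC medium, 4 days; the read-out is not stated. Tested at 500 µM. Direction is inferred from retests: higher values go with more growth inhibition. About 18,000 compounds were tested under these conditions; 5% (about 900) showed 50% or more at least once.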

Results are given as percent effect. How 0% and 100% were set is not recorded. Most values in the screen are low, and negative values occur. Many other results are left out here, so strong results are more common than in the screen. A dash means the value is not listed here; it may have been measured.

Compound,A,B
Cc1cnc(C(=O)N2CCC(C)CC2)cn1,43.49,-
CC(C)CCC(=O)NCC(=O)NCC(O)C(C)(C)C (configuration not stated),11.95,-
Cc1cccnc1NC(=O)CCc1cnn(C)c1,-41.06,-
COCCn1ccnc1C1CCCN(C(=O)CSC)C1 (configuration not stated),8.934,-
CC(C)C1CN(C(=O)CCc2ccccn2)CCS1 (configuration not stated),75.83,79.32
CC(=O)N1CCC(C(=O)NCCc2nccn2C)CC1,-,8.247
CC(Cn1cccn1)NCC(=O)N1CCNC(=O)C1 (configuration not stated),6.378,-
CN(CC(=O)N1CCC2(CCCCC2)CC1)S(C)(=O)=O,-,-4.154
COc1ccc2cc(CN)ccc2c1,29.56,-
CC(=O)N1CCC(C(=O)Nc2ccc(C)c(C)c2)CC1,-,40.42
CC(=O)N1CCC(CNC(C)Cn2cccn2)CC1 (configuration not stated),-7.901,-
CS(=O)(=O)NCCCc1cnc2ccccc2c1,37.45,-
CCC(CC)C(CN)N(C)C (configuration not stated),75.06,56.05
Cc1nn(-c2ccccc2)cc1CN,-,13.39
CCN(CC(=O)NCc1ncccc1F)C1CC1,8.2,-
CC(=O)NCc1ccc(-c2csc(N)n2)s1,29.61,-
Cc1cc(CNC(=O)N2CCSCC2)nc(C)n1,-,-1.559
O=C(O)C1CN(Cc2ccc(CN3CCCCC3)s2)C1,-2.735,-
CC[C@@H](O)CN1CCC(OC2CCOC2)CC1 (some centres not stated),-4.255,-
CCSCCNC(=O)c1cc(CC)[nH]c(=O)c1,-4.296,-
O=S(=O)(CCN1CCCCC1)c1ccccc1,32.82,35.1
Cc1cc(NC(=O)NC(C)Cn2ccnc2)no1 (configuration not stated),-3.693,-
O=C(NC1CCc2ccc(F)cc21)c1c[nH]nn1 (configuration not stated),53.79,-
Cn1cc(CNCC(=O)NCc2ccco2)cn1,-3.091,0.3275
NS(=O)(=O)c1cc(Cl)cc(CO)c1,1.49,-
O=C(Nc1ncccc1O)c1cccnc1C(F)(F)F,1.068,-
C=C(Br)CNC(=O)c1cccc(CN2CCCC2)c1,0.886,-
COCCn1cncc1CNC(=O)C1(C)CCCCO1 (configuration not stated),-,1.135
C1CC(OCCN2CCOCC2)CN1 (configuration not stated),5.242,-
O=C(Cc1cccnc1)NCCNc1cccc(Br)c1,61,-
COc1c(F)ccc(F)c1C(=O)NCCC(O)C(C)C (configuration not stated),-,-11.24
CC(=O)NCc1cn2ccsc2n1,16.32,3.22
N#Cc1ccnc(N2CCCC(O)C2)c1 (configuration not stated),13.18,-
Cc1ocnc1C(=O)Nc1ccc2c(c1)NCCC2,22.97,-
CC(CNc1ccc2nnnn2n1)N1CCOCC1 (configuration not stated),-5.586,-
CCCC(NC(C)=O)C(=O)N(C)Cc1cc[nH]n1 (configuration not stated),-,0.05683
CN1CCC(=O)CC1c1ccc(Br)cc1 (configuration not stated),-4.629,-
O=C(Nc1cc(F)ccc1F)c1cnccn1,-11.44,-
N#Cc1ccnc(-n2ccnc2)c1,-6.345,-
CC1CCN(C(=O)COc2ncccn2)CC1,-,26.82
NC1CCCN(c2ccccc2Cl)C1=O (configuration not stated),-0.776,-
CSCc1nc(CNC(=O)c2cc(C)no2)cs1,44.39,-

Some entries from above, unchanged:

{"compound": "O=C(Nc1cc(F)ccc1F)c1cnccn1", "A": -11.44}
{"compound": "CC(=O)NCc1ccc(-c2csc(N)n2)s1", "A": 29.61}
{"compound": "O=C(O)C1CN(Cc2ccc(CN3CCCCC3)s2)C1", "A": -2.735}